Compound potency records, mixed from different reports. Data source: NIAID ChemDB in PubChem.

Common to all: tests in culture; species: HIV-1; read by: p24; endpoint: EC50

Lines come from different laboratories, so protocols vary. ECn: concentration that inhibits the pathogen or its effect by n%. Blank or dashed fields: not listed here.

compound | cells | strain or isolate | changes | value
CC(C)c1ccc(CS(=O)(=O)c2cccc[n+]2[O-])cc1 | CEM | IIIB |  | ~20 µg/mL
COc1ccc(S(=O)(=O)N(CC(O)CN2CC(c3ccccc3)c3ccccc3C2=O)CC2CCCC2)cc1 | CEM | IIIB |  | <1 µM
N#Cc1cc(Cl)cc(Oc2cc(OCc3[nH]nc4nc(N5CCNCC5)ccc34)ccc2Cl)c1 | MT-4 |  |  | <20 µM
CC(C)CN(C[C@@H](O)[C@H](Cc1ccccc1)NC(=O)OCc1cccnc1)S(=O)(=O)c1ccc2nonc2c1 | CEM | IIIB |  | <1.001 µM
CC(C)n1c(=O)c(O)c2n(c1=O)CCN(Cc1ccc3ccccc3n1)C2=O | MT-4 |  |  | <10 µM
CCCc1cc(=O)oc2c3c(c4c(c12)OC(C)(C)C=C4)O[C@H](C)C[C@@H]3O | PBMC | IIIB |  | 27.92 µM
O=C(N[C@@H](Cc1ccccc1)[C@H](O)CN(CC1CCCC1)S(=O)(=O)c1ccc(F)cc1)O[C@@H]1CCOC1 | CEM | IIIB |  | <0.101 µM
NS(=O)(=O)c1ccc(NC(=O)COc2cccc(Cc3ccccc3)c2)c(Cl)c1 | MT-4 |  |  | <20 µM
NCC(=O)N1CCC[C@H]1C(=O)NCC(=O)O | H9 | SF2 |  | >100 µM
COc1ccc(S(=O)(=O)N(Cc2ccccc2)CC(F)(F)C(=O)[C@@H](Cc2ccccc2)NC(=O)O[C@H]2CCOC2)cc1 | CEM | IIIB |  | <1 µM
Cc1cc(CNC(=O)c2nc3n(c(=O)c2O)CCN(C)CC3N(C)C(=O)C(=O)N(C)C)ccc1F | MT-4 |  |  | <1 µM
COC(=O)c1cc2c(OC)c(N)ccc2[nH]1 |  |  |  | 1.25 µg/mL
O=C1c2c(O)c(=O)n(CCCn3ccnc3)c(=O)n2CCN1Cc1ccc(F)cc1 | MT-4 |  |  | <10 µM
CC(C)CN(C(=O)C(=O)N(C)C)C1CN(C)CCn2c1nc(C(=O)NCc1ccc(F)cc1)c(O)c2=O | MT-4 |  |  | <1 µM
NC(=O)C[C@H](NC(=O)c1ccc2ccccc2n1)C(=O)N[C@@H](Cc1ccccc1)[C@H](O)CN(Cc1ccccc1)S(=O)(=O)c1ccccc1 | CEM | IIIB |  | <1.001 µM
COc1ccc(S(=O)(=O)N(CC(C)C)CC(O)CC(=O)N2CCN(Cc3cccnc3)C[C@H]2C(=O)NC(C)(C)C)cc1 | CEM | IIIB |  | <1 µM
CS(=O)(=O)c1ccc2c(c1)CCN2C(=O)COc1ccc(Cl)c(Oc2cc(Cl)cc(C#N)c2)c1 | MT-4 |  |  | <20 µM
C=CCOC(=O)N[C@@H](Cc1ccccc1)[C@H](O)CN(CC1CCCC1)S(=O)(=O)c1ccc(OC)cc1 | CEM | IIIB |  | <0.101 µM
N#Cc1cc(Cl)cc(Oc2cc(OCc3nc4cccc(Cl)c4s3)ccc2Cl)c1 | MT-4 |  |  | <20 µM
O=C1c2c(O)c(=O)n(C3CCOCC3)c(=O)n2CCN1Cc1ccc(F)cc1 | MT-4 |  |  | <10 µM
NCC(N)=O | PBMC | Clinical isolates |  | 23 µM
Cc1cc(C)c(CS(=O)c2cccc[n+]2[O-])c(C)c1 | CEM | IIIB |  | ~20 µg/mL
CO[C@H]1C[C@@H]2CC[C@@H](C)[C@@](O)(O2)C(=O)C(=O)N2CCCC[C@H]2C(=O)O[C@H]([C@H](C)C[C@@H]2CC[C@@H](O)[C@H](OC)C2)CC(=O)[C@H](C)/C=C(\C)[C@@H](O)[C@@H](OC)C(=O)[C@H](C)C[C@H](C)/C=C/C=C/C=C/1C | PBMC | IIIB X4 |  | >0.001 µM
CCc1c(Sc2ccccc2)n(COCc2ccccc2)c(=O)[nH]c1=O | MT-4 | A018A |  | 0.0095 µM
Nc1nccc2c1ncn2[C@@H]1C=C(CO)[C@@H](O)[C@H]1O | PBMC | A012 POST-AZT |  | 0.0013 µM
CCO[C@@H]1Cc2cc(C(F)(F)F)ccc2C1N1CCN(C2(C)CCN(C(=O)c3c(C)ncnc3C)CC2)C[C@@H]1C | PBMC | Ru570 |  | 0.002 µM
O=C1c2c(O)c(=O)n(CC3CCCN4CCCCC34)c(=O)n2CCN1Cc1ccc(F)cc1 | MT-4 |  |  | <10 µM
COc1cc(N)cc2nc(N)cc(OC)c12 |  |  |  | 0.13 µg/mL
OCCC#Cc1nc(-c2ccc(F)cc2)c(-c2ccncc2)n1CCCc1ccccc1 | Jurkat cells | pNL4-3 |  | <1 µM
Cc1ccc(C)n1-c1ccc(C(=O)O)c(O)c1 | MT-2 | AZT-resistant X4 CLADE B |  | 11.57 µM
COC(=O)c1cc2ccc(N(C)C)cc2[nH]1 |  |  |  | 0.65 µg/mL
CCCCCCCCNCC(O)CCCCCCCCCn1c(=O)c2c(ncn2C)n(C)c1=O | PBL | Clinical isolate |  | 1 µM
CN1CCn2c(nc(C(=O)NCc3ccc(F)c(Cl)c3)c(O)c2=O)C1(C)C | MT-4 |  |  | <1 µM
C/C(=C(/CCO)SS/C(CCO)=C(\C)N(C=O)Cc1cnc(C)nc1N)N(C=O)Cc1cnc(C)nc1N | Macrophage + Monocytes/macrophages | ADA |  | >100 µM
CC(C)n1c(=O)c(O)c2n(c1=O)C(CCN1CCOCC1)CN(Cc1ccc(F)cc1)C2=O | MT-4 |  |  | <10 µM
COc1ccc(S(=O)(=O)N(CC2CCCC2)C[C@@H](O)CN(CCC2CCCCC2)C(=O)O[C@H]2CCOC2)cc1 | CEM | IIIB |  | <0.1 µM
Cn1nccc1CN1CCn2c(nc(C(=O)NCc3ccc(F)cc3)c(O)c2=O)C1(C)C | MT-4 |  |  | <1 µM
COC(=O)N[C@@H](Cc1ccccc1)[C@H](O)CN(CC(C)C)S(=O)(=O)c1ccc(Cl)c(Cl)c1 | CEM | IIIB |  | <1.001 µM
Cc1ccc(S(=O)(=O)N2CCn3c(nc(C(=O)NCc4ccc(F)cc4)c(O)c3=O)C2)cc1 | MT-4 |  |  | <50 µM
COc1cc(N)cc2[nH]c(C(C)=O)cc12 |  |  |  | 1.03 µg/mL
Fc1cccc(Cl)c1-c1nnc2ccc3c(C(F)(F)F)ccnc3n12 | PBMC | Isolate 2076 |  | 38 µM
CC(C)Nc1cccnc1N1CCN(C(=O)c2cc3ccccc3[nH]2)CC1 | H9 | IIIB |  | 0.04 µM
Nc1ncnc2c1ncn2[C@@H]1C=C(CO)[C@@H](O)[C@H]1O | PBMC | A012 PRE-AZT |  | 0.0109 µM
CN(CC(CCN1CCC(O)(CCCc2ccccc2)CC1)c1ccccc1)S(=O)(=O)c1ccc(-c2ccccn2)s1 | PBMC | YU2 |  | <6.2 µM
Cc1ccc(-c2ccc3c(c2)C=C(C(=O)Nc2ccc(C[N+](C)(C)C4CCOCC4)cc2)CCC3)cc1 | PBMC | TB7 CLADE C |  | <1 µM
N#Cc1cc(Cl)cc(Oc2cc(Cl)cc(OCc3nc4ccccc4s3)c2)c1 | MT-4 |  |  | <20 µM
O=C(OC1COCOC1)N(Cc1ccccc1)CC(O)CN(CC1CCCC1)S(=O)(=O)c1ccccc1 | CEM | IIIB |  | <1 µM
CC1(C)c2nc(C(=O)NCc3ccc(F)cc3)c(O)c(=O)n2CCN1CC(=O)N1CCOCC1 | MT-4 |  |  | <1 µM
OC1(CCCc2ccccc2)CCN(C[C@H]2CN(CC3CCCCC3)C[C@@H]2c2ccccc2)CC1 | PBMC | YU2 |  | <0.58 µM
C=CC(C)(/C=C\c1ccc(O)cc1)c1ccc(O)cc1.NC(=O)NO | Macrophage | BaL |  | <0.00232 µM
CCN(CC)C(=S)SSC(=S)N(CC)CC | CEM-SS |  |  | >100 µM
Cc1ccc(-c2nnc3ccc4c(C(F)(F)F)cc(C(F)(F)F)nc4n23)cc1 | PBMC | Isolate 2076 |  | 18 µM
COc1ccc(S(=O)(=O)N(CC(C)C)C[C@@H](O)CCN(CC2CCCC2)S(=O)(=O)CC(C)(C)C)cc1 | CEM | IIIB |  | <1 µM
CC(C)CN(C[C@@H](O)[C@H](Cc1ccccc1)NC(=O)O[C@H]1CCOC1)S(=O)(=O)c1ccc(F)cc1 | CEM | IIIB |  | <0.101 µM
N#Cc1cc(Cl)cc(Oc2cc(F)cc(OCc3[nH]nc4nc(N)ccc34)c2)c1 | MT-4 |  |  | <20 µM
CC(=O)Nc1ccc(S(=O)(=O)N(CC(C)C)C[C@@H](O)[C@H](Cc2ccccc2)NC(=O)OC(C)C)cc1 | CEM | IIIB |  | <1.001 µM
CCN1c2nc(C(F)(F)F)ccc2NC(=O)c2cc(CCOc3cc[n+]([O-])c4ccccc34)cnc21 | C8166 |  | RT-K103N Y181C | 0.0035 µM
Cc1cc2ccccc2c(-c2ccc3c4c(ccnc24)CCO3)c1[C@H](OC(C)(C)C)C(=O)O | PBMC | NL4-3 |  | 0.014 µM
CCc1cc(=O)c2ccc3c(c2o1)[C@@H](OC(=O)C12CCC(C)(C(=O)O1)C2(C)C)[C@@H](OC(=O)C12CCC(C)(C(=O)O1)C2(C)C)C(C)(C)O3 | MT-4 | NL4-3 |  | 0.014 µM
Cc1cc(C)cc(S(=O)(=O)c2c(C(=O)NCCO)[nH]c3ccc(Cl)cc23)c1 | C8166 | IIIB WT |  | <0.005 µM
NS(=O)(=O)c1ccc(NC(=O)COc2cccc(Oc3ccccc3)c2)c(Cl)c1 | MT-4 |  |  | <20 µM
CC(C)Nc1cccnc1N1CCN(C(=O)c2cc3cc(F)ccc3[nH]2)CC1 | H9 | IIIB |  | 0.05 µM
CC(C)CN(C[C@@H](O)[C@H](Cc1ccccc1)NC(=O)OC(C)(C)C)S(=O)(=O)c1ccccc1 | CEM | IIIB |  | <1.001 µM
COC(=O)c1cc2c(OC)c(CC=C(C)C)c(N)cc2[nH]1 |  |  |  | 0.13 µg/mL

For reference, 5 entries again:

compound | cells | strain or isolate | changes | value
CCO[C@@H]1Cc2cc(C(F)(F)F)ccc2C1N1CCN(C2(C)CCN(C(=O)c3c(C)ncnc3C)CC2)C[C@@H]1C | PBMC | Ru570 |  | 0.002 µM
COC(=O)c1cc2ccc(N(C)C)cc2[nH]1 |  |  |  | 0.65 µg/mL
CC(C)Nc1cccnc1N1CCN(C(=O)c2cc3ccccc3[nH]2)CC1 | H9 | IIIB |  | 0.04 µM
CCCc1cc(=O)oc2c3c(c4c(c12)OC(C)(C)C=C4)O[C@H](C)C[C@@H]3O | PBMC | IIIB |  | 27.92 µM
CC(C)c1ccc(CS(=O)(=O)c2cccc[n+]2[O-])cc1 | CEM | IIIB |  | ~20 µg/mL